# Screening data, single-dose tests

Source: ChEMBL document CHEMBL3988442, “University of Dundee, Small-Polar-MMV Screening Library” (2021).

Mtb glucose medium: 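Growth of Mycobacterium tuberculosis over 3 days (7H9 medium with glucose and tyloxapol); the read-out is not stated. Compounds at 500 µM. Direction is inferred from retests: higher values go with more growth inhibition. About 18,000 compounds were tested under these conditions; 7.9% (about 1,400) showed 50% or more at least once.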
Mtb cholesterol medium: 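Growth of Mycobacterium tuberculosis over 4 days (cholesterol / DPPC medium with tyloxapol); the read-out is not stated. Tested at 500 µM. Higher reads as more growth inhibition (inferred: compounds with an IC50 in retests scored well above the rest). Of about 18,000 compounds tested this way, about 900 (5%) reached 50% or more in at least one test.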

Each number is a percent effect as filed. The record does not define 0% and 100%; most values in the screen are far below 50% and negative numbers occur (in some assays of this library far below -100). This is part of a subset picked to be rich in strong results.

CN(C)S(=O)(=O)NCC(O)c1ccc(Cl)c(F)c1 (stereo not shown) read Mtb glucose medium: 50.87%.
CC(C)(C)OC(=O)N1CCN(c2ccnc(N)c2)CC1 read Mtb glucose medium: 59.42%.
N#Cc1ccc(OCCCN2CCNC(=O)C2)cc1 read Mtb glucose medium: 57.36%; Mtb cholesterol medium: 58.22%.
COc1cc(C(=O)NC(C)(C)CC(N)=O)sc1Br read Mtb cholesterol medium: -3.771%.
Cc1ccccc1NC(=O)N1CCN(CC(N)=O)CC1 read Mtb cholesterol medium: 2.988%.
CC(NC(=O)Cn1ccc(=O)n(C)c1=O)c1cccs1 (stereo not shown) read Mtb glucose medium: 1.068%; Mtb cholesterol medium: 11.37%.
COCCNC(=O)C1CC(c2ccc(Cl)c(Cl)c2)=NO1 (stereo not shown) read Mtb cholesterol medium: 0.2661%.
COCCC(C)Nc1c[nH]nc1-c1ccccn1 (stereo not shown) read Mtb glucose medium: 53.59%.
Nc1nccnc1C(=O)Nc1ccccn1 read Mtb glucose medium: 10.11%.
COc1ncc(C)cc1NC(=O)c1cc[nH]n1 read Mtb cholesterol medium: -11.93%.
CC(C)CCC(=O)N1CCN(CC(O)C(F)(F)F)CC1 (stereo not shown) read Mtb glucose medium: 42.66%; Mtb cholesterol medium: 50.84%.
COc1c(C(=O)N2CCOCC2)sc2ccc(F)cc12 read Mtb glucose medium: 53.22%.
c1ccc2[nH]c(NCC3CCCO3)nc2c1 (stereo not shown) read Mtb cholesterol medium: 63.81%.
CC(C)n1cc(S(=O)(=O)N2CCC3(CCOC3)C2)cn1 (stereo not shown) read Mtb cholesterol medium: 9.031%.
[H][C@](N)(CO)c1ccccc1 read Mtb glucose medium: 2.698%.
CC(NC(=O)C1CCCC1)c1ccc(S(C)(=O)=O)cc1 (stereo not shown) read Mtb glucose medium: -8.444%.
CCNC1=NN=C(c2ccc(OC)c(F)c2)CS1 read Mtb glucose medium: 78.7%; Mtb cholesterol medium: 84.32%.
Cc1cc(CS(=O)(=O)C(C)C(=O)NC2CC2)on1 (stereo not shown) read Mtb cholesterol medium: -23.74%.
OCCNC1CCC1 read Mtb glucose medium: -11.39%.
CN1CCCN(S(=O)(=O)c2ccccc2F)CC1 read Mtb cholesterol medium: 11.98%.
CCn1ccc(C(=O)NCCSC(F)(F)F)cc1=O read Mtb glucose medium: 9.797%; Mtb cholesterol medium: 8.844%.
CC(NC(=O)c1ccc(=O)n(C)n1)C1CC1 (stereo not shown) read Mtb glucose medium: 25.9%.
OC(CN1CCn2ccnc2C1)c1cc(F)ccc1F (stereo not shown) read Mtb glucose medium: 9.767%; Mtb cholesterol medium: -0.4387%.
CCSc1ccc(NC(=O)NCCN(C)C)cn1 read Mtb glucose medium: -18.76%.
Cc1nc(C2CCN(CC3CCOC3)CC2)no1 (stereo not shown) read Mtb glucose medium: 2.23%.
COc1cccc(CNc2nc(C(C)C)nn2C)n1 read Mtb glucose medium: 62.63%.
CC(C)(C)Oc1ccc(C(=O)N2CC(CO)C2)cn1 read Mtb glucose medium: -12.45%.
Cc1ccc(NC(=O)CN2CCCCC2=O)c(C)c1O read Mtb cholesterol medium: -3.221%.